By IC50 is commonly meant the concentration needed to halve the response being measured.

Sequences of proteins named here, by UniProt entry; tags and fusion partners are left off.
UniProt P06612, whole entry: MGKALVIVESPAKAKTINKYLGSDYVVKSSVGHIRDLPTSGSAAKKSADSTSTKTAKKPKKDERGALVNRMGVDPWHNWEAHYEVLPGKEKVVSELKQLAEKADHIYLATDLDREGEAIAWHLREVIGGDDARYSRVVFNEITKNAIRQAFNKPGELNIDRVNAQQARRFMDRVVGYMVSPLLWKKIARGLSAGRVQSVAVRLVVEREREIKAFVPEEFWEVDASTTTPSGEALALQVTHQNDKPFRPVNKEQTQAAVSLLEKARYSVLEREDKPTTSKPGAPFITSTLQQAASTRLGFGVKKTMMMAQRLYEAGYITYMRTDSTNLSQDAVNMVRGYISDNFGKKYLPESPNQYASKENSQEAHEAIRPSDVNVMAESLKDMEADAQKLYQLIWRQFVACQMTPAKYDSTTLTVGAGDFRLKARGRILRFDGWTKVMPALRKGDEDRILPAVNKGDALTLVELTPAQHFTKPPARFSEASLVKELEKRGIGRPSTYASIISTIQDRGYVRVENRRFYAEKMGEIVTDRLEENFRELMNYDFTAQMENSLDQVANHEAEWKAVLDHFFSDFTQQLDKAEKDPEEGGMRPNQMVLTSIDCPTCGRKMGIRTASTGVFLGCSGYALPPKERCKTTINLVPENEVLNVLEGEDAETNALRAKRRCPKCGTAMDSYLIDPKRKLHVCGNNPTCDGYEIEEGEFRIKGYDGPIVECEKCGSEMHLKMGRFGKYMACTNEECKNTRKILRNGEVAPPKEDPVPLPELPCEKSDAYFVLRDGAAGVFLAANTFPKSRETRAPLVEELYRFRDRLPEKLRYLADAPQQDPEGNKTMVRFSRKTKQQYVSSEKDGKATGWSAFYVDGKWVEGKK
UniProt P9WG49, whole entry: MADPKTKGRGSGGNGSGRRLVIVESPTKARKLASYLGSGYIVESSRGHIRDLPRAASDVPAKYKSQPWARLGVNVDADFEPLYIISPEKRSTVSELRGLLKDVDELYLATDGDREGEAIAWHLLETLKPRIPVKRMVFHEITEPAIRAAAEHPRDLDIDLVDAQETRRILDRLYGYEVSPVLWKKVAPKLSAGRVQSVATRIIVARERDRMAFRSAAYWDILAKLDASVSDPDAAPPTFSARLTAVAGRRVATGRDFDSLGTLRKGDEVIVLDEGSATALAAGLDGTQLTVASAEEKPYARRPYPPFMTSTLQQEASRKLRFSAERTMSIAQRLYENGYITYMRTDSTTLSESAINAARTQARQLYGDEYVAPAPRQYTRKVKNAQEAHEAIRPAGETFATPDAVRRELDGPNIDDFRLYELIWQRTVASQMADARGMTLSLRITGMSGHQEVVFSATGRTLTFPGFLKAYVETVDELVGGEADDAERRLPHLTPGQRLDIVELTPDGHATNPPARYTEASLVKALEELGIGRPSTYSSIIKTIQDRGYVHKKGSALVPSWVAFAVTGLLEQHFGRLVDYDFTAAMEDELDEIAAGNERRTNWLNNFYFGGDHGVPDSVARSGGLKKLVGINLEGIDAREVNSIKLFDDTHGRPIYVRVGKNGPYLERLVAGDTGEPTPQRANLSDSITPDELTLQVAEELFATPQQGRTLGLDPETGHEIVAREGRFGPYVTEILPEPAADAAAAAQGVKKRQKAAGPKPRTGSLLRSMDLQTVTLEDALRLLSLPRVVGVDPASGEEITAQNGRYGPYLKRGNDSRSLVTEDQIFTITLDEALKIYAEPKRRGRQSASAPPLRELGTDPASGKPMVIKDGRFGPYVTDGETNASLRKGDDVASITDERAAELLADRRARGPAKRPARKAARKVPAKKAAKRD

These results are taken from patent US9988341B2, “Bacterial topoisomerase inhibitors and use thereof” (THE FLORIDA INTERNATIONAL UNIVERSITY BOARD OF TRUSTEES, priority 2016, dated 2018).

Where two headings read alike, the source gives them in different places.

One experiment addresses E. coli topoisomerase I (Escherichia coli, UniProt P06612). As to the kind of experiment: Bacterial topoisomerase I relaxation activity inhibition assay (EcTopI).
The target in experiment [1] is M. tuberculosis topoisomerase I (Mycobacterium tuberculosis, UniProt P9WG49). Conditions: read-out: MtbTopI IC50; Table 3.
Another experiment has as its system Mtb-lux. Kind of experiment: Percent Mtb-lux killing.
[2] abbreviates: read-out: EcTopI relaxation inhibition (IC50), Table 1, individual compounds tested as crude material.

As for `NC[C@H](CC1CCCCC1)NC[C@H](Cc1ccc(F)cc1)NCCCCC1CCCCC1`, the IC50 on E. coli topoisomerase I (setting [2]) is 40 µM. In the case of `NC[C@@H](CC1CCCCC1)NC[C@H](Cc1ccc(F)cc1)NCCc1cc(C(F)(F)F)cc(C(F)(F)F)c1`, the IC50 on E. coli topoisomerase I (setting [2]) stood at 40 µM.

On to `NC[C@H](Cc1ccc2ccccc2c1)NC[C@H](Cc1ccc(F)cc1)NCCc1cc(C(F)(F)F)cc(C(F)(F)F)c1`, for which the IC50 at E. coli topoisomerase I (setting [2]) worked out at 40 µM. On to `CNCCCC[C@@H](CN)NC[C@H](CCCNC(=N)N)NCCc1cccc2ccccc12`, for which the 50% inhibitory concentration (IC50) at E. coli topoisomerase I (read-out: EcTopI IC50, Table 3) is 2.5 µM; at E. coli topoisomerase I (setting [2]) it was 2.5 µM; in experiment [1], 1.25 µM. The “Percent Mtb-lux killing 5 μg/mL” value with Mtb-lux was 30.7%. As for `NC[C@@H](CC1CCCCC1)NC[C@H](Cc1ccc(F)cc1)NCCCCC1CCCCC1`, the IC50 on E. coli topoisomerase I (setting [2]) amounted to 40 µM. As to `CNCCCC[C@@H](CN[C@H](CN)CCCN)NCCc1cccc2ccccc12`, the IC50 at E. coli topoisomerase I (read-out: EcTopI IC50, Table 3) turned out to be 1.9 µM; on E. coli topoisomerase I (setting [2]) it was 1.9 µM; in experiment [1], 0.625 µM. Also, the “Percent Mtb-lux killing 5 μg/mL” value with Mtb-lux was 5.4%.

For `CNCCCC[C@H](CN)NC[C@H](CCCCNC)NCCc1ccc(O)c(O)c1`, the concentration for half-maximal inhibition (IC50) on E. coli topoisomerase I (setting [2]) turned out to be 80 µM.

Take `CCC[C@H](CN[C@H](CN)CCCCNC)NCCc1cccc2ccccc12`: the IC50 in experiment [1] turned out to be 5 µM. Moreover, the “Percent Mtb-lux killing 5 μg/mL” value in the experiment with Mtb-lux came out at 58.6%. With `NC[C@H](CC1CCCCC1)NC[C@H](Cc1ccc(F)cc1)NCCc1cc(C(F)(F)F)cc(C(F)(F)F)c1`, the IC50 at E. coli topoisomerase I (setting [2]) turned out to be 40 µM. On the same count and under the same terms, next, `CNCCC[C@@H](CN[C@H](CN)Cc1ccc2ccccc2c1)NCC1CCC(C(C)(C)C)CC1` (some centres unmarked): 40 µM; `CNCCC[C@H](CN[C@H](CN)Cc1ccc2ccccc2c1)NCC1CCC(C(C)(C)C)CC1` (some centres unmarked): 40 µM. Same read-out and setting: next, `CNCCC[C@@H](CN[C@H](CN)Cc1ccc2ccccc2c1)NCCCCC1CCCCC1`: 40 µM.

Consider `CNCCCC[C@@H](CN)NC[C@H](CCCCNC)NCCc1ccc(O)c(O)c1`, for which, on E. coli topoisomerase I (setting [2]), the IC50 is 120 µM. For the compound `CNCCCC[C@H](CN)NC[C@H](CCCNC(=N)N)NCc1cccc2ccccc12`, the IC50 in experiment [1] is 2.5 µM. In the experiment with Mtb-lux, the “Percent Mtb-lux killing 5 μg/mL” value worked out at 35.8%. As to `CNCCC[C@@H](CN[C@H](CN)Cc1ccc2ccccc2c1)NCCc1cc(C(F)(F)F)cc(C(F)(F)F)c1`, at E. coli topoisomerase I (setting [2]), the IC50 worked out at 40 µM.

Consider `CCC[C@H](CN[C@@H](CN)CCCCNC)NCc1cccc2ccccc12`, for which, in experiment [1], the IC50 was determined as 5 µM. The “Percent Mtb-lux killing 5 μg/mL” value in the experiment with Mtb-lux is 56.0%.

On to `NC[C@H](Cc1ccc2ccccc2c1)NC[C@H](Cc1ccc(F)cc1)NCCCCC1CCCCC1`, for which the half-inhibitory concentration (IC50) on E. coli topoisomerase I (setting [2]) was 40 µM. Still for that read-out and setting: next, `N=C(N)NCCC[C@@H](CN[C@H](CN)CCCN)NCCc1cccc(Br)c1`: 40 µM.

Turning to `CNCCCC[C@@H](CN)NC[C@H](CCCCNC)NCCc1cccc2ccccc12`, in experiment [1], the IC50 was 2.5 µM. The “Percent Mtb-lux killing 5 μg/mL” value in the experiment on Mtb-lux was found to be 5.9%. Turning to `CNCCC[C@H](CN[C@H](CN)Cc1ccc2ccccc2c1)NCCCCC1CCCCC1`, the IC50 on E. coli topoisomerase I (setting [2]) is 40 µM. Still for that read-out and setting: in the case of `CNCCC[C@@H](CN[C@H](CN)Cc1ccc2ccccc2c1)NCCc1ccc(Cl)c(Cl)c1` it was 30 µM. On the same count and under the same terms, next, `CCCC[C@H](CN[C@@H](CN)CC1CCCCC1)NCCc1cc(C(F)(F)F)cc(C(F)(F)F)c1`: 40 µM. For `CCC[C@H](CN[C@H](CN)CCCN)NCCc1cccc2ccccc12`, the IC50 on E. coli topoisomerase I (read-out: EcTopI IC50, Table 3) came to 7.5 µM; on E. coli topoisomerase I (setting [2]), 7.5 µM; in experiment [1], 10 µM. In addition, the “Percent Mtb-lux killing 5 μg/mL” value in the experiment on Mtb-lux was 42.0%. Consider `CCCC[C@H](CN[C@H](CN)Cc1ccc2ccccc2c1)NCCc1cc(C(F)(F)F)cc(C(F)(F)F)c1`, for which, on E. coli topoisomerase I (setting [2]), the IC50 stood at 40 µM. Regarding `CNCCCC[C@H](CN)NC[C@H](CCCCNC)NCCc1cccc2ccccc12`, the IC50 on E. coli topoisomerase I (read-out: EcTopI IC50, Table 3) is 1.25 µM; on E. coli topoisomerase I (setting [2]), 1.2 µM; in experiment [1], 1.9 µM. Further, the “Percent Mtb-lux killing 5 μg/mL” value in the experiment on Mtb-lux stood at 12.6%. As for `CNCCC[C@H](CN[C@@H](CN)CC1CCCCC1)NCCCCC1CCCCC1`, the IC50 on E. coli topoisomerase I (setting [2]) is 80 µM. Consider `N=C(N)NCCC[C@@H](CN[C@H](CN)CCCN)NCCc1cccc2ccccc12`, for which the IC50 at E. coli topoisomerase I (read-out: EcTopI IC50, Table 3) amounted to 1.25 µM; on E. coli topoisomerase I (setting [2]) it was 1.2 µM; in experiment [1], 1.25 µM. For the same compound, the “Percent Mtb-lux killing 5 μg/mL” value in the experiment on Mtb-lux came out at 22.7%. Take `CNCCC[C@H](CN[C@H](CN)Cc1ccc2ccccc2c1)NCCc1cc(C(F)(F)F)cc(C(F)(F)F)c1`: the IC50 on E. coli topoisomerase I (setting [2]) was 40 µM. Same read-out and setting: in the case of `CC(C)(C)C1CCC(CN[C@H](CN[C@H](CN)Cc2ccc3ccccc3c2)Cc2ccc(F)cc2)CC1` (some centres unmarked) it was 40 µM. On the same count and under the same terms, next, `CCCC[C@H](CN[C@H](CN)CC1CCCCC1)NCCc1cc(C(F)(F)F)cc(C(F)(F)F)c1`: 40 µM.

As to `CCCC[C@H](CN[C@H](CN)Cc1ccc2ccccc2c1)NCCCCC1CCCCC1`, the IC50 at E. coli topoisomerase I (setting [2]) was 40 µM.
